Source: US7276510B2, “HIV replication inhibitors” (Janssen Pharmaceutica, Inc., priority 2000, dated 2007)

What follows are compounds tested on HIV-infected MT-4 cells (assay: Inhibition of the HIV-induced cytopathic effect in MT-4 cells (MTT)). Conditions: CC50/IC50 in MT-4 cells.
Assay type: cell-based
Description: A rapid, sensitive and automated assay procedure was used for the in vitro evaluation of anti-HIV agents. An […] T4-cell line, MT-4, which was previously shown (Koyanagi et al., Int. J. Cancer, 36, 445-451, 1985) to be highly susceptible to and permissive for HIV infection, served as the target cell line. Inhibition of the HIV-induced cytopathic effect was used as the end point. The viability of both HIV- and mock-infected cells was assessed spectrophotometrically via the in situ reduction of 3-(4,5-dimethylthiazol-2-yl)-2,5-diphenyltetrazolium bromide (MTT). […] The percent protection achieved by the compound in HIV-infected cells was calculated by the following formula:
[formula] whereby (ODT)HIV is the optical density measured with a given concentration of the test compound in HIV-infected cells; (ODC)HIV is the optical density measured for the control untreated HIV-infected cells; (ODC)MOCK is the optical density measured for the control untreated mock-infected cells; all optical density values were determined at 540 nm. […] The ratio of CC50 to IC50 was defined as the selectivity index (SI).
In the case of CSc1nc(Nc2ccc(C#N)cc2)nc(Nc2c(C)cc(C)cc2C)n1 [Compound 20], the “SI (selectivity index, ratio of CC50 to IC50)” value is reported as 1990.
In the case of Cc1cc(C)c(Oc2cc(C(F)(F)F)nc(Nc3ccc(C#N)cc3)n2)c(C)c1 [Compound 25], the “SI (selectivity index, ratio of CC50 to IC50)” value is reported as over 1266.
In the case of Cc1cc(C)c(Oc2nc(Nc3ccc(C#N)cc3)nc(C(N)=O)n2)c(C)c1 [Compound 26], the “SI (selectivity index, ratio of CC50 to IC50)” value is reported as 1995.
With COCc1cc(Oc2c(Br)cc(C#N)cc2Br)nc(Nc2ccc(C#N)cc2)n1 [Compound 27] the “SI (selectivity index, ratio of CC50 to IC50)” value was over 1000.
N#Cc1ccc(Nc2nc(Cc3c(Cl)cccc3Cl)nc(N3C(=O)CCC3=O)n2)cc1 [Compound 48] was tested, and the “SI (selectivity index, ratio of CC50 to IC50)” value was over 12658.
In the case of CCOc1nc(Cc2c(Cl)cccc2Cl)nc(Nc2ccc(C#N)cc2)n1 [Compound 58], the “SI (selectivity index, ratio of CC50 to IC50)” value is reported as 1997.
For N#Cc1ccc(Nc2nc(Cl)nc(Nc3c(Cl)cc(Cl)cc3Cl)n2)cc1 [Compound 85], the “SI (selectivity index, ratio of CC50 to IC50)” value was 2506.
In the case of Cc1cc(Cl)cc(Cl)c1Nc1nc(Cl)nc(Nc2ccc(C#N)cc2)n1 [Compound 109], the “SI (selectivity index, ratio of CC50 to IC50)” value is reported as 3163.
